Measurements taken from paper PMC4398322, “Snake neurotoxin α-bungarotoxin is an antagonist at native GABAA receptors” (Neuropharmacology, 2015).

Tests used:
α2β2γ2 GABAA receptor = molecular target: T1, α2β2γ2 GABAA receptor (mouse, UniProt P26048 29-451; P63137 26-512; P22723 39-474)
T1 sequence (looked up) 1: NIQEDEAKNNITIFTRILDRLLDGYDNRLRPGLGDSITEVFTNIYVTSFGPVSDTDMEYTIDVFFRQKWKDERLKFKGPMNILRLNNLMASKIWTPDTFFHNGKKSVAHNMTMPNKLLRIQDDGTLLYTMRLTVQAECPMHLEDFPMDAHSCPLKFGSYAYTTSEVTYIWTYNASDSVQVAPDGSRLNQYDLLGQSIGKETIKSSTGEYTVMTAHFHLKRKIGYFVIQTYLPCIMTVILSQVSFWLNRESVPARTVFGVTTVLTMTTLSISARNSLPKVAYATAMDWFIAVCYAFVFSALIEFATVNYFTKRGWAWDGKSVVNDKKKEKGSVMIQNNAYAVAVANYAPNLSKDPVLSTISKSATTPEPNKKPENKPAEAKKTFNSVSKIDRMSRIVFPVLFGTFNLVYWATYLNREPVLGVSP
T1 sequence (looked up) 2: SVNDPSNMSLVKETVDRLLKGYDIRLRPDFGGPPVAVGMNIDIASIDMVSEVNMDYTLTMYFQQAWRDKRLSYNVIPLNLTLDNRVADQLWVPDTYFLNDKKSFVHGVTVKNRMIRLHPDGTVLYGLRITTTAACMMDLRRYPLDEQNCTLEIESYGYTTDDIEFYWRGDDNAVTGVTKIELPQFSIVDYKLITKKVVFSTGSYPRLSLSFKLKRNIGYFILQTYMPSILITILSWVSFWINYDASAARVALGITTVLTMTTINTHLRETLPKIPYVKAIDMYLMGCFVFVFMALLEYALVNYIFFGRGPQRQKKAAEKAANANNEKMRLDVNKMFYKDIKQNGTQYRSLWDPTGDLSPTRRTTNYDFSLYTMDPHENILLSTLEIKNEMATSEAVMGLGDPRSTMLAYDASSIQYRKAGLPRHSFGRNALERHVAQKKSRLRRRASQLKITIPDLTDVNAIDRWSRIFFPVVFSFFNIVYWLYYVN
T1 sequence (looked up) 3: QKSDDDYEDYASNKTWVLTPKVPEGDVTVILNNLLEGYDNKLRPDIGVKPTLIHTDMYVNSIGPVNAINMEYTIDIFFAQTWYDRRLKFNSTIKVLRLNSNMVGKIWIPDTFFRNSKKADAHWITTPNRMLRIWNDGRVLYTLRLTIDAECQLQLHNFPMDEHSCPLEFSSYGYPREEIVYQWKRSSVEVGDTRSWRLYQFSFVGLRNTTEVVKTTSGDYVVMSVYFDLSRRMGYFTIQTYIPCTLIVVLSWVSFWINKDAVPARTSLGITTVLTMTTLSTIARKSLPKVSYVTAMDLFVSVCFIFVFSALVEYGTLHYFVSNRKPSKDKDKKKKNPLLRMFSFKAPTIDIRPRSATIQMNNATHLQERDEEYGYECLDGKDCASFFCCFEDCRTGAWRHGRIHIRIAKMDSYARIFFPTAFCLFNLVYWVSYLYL

α1β2γ2 GABAA receptor = molecular target: T2, α1β2γ2 GABAA receptor (mouse, UniProt P62812 28-455; P63137 26-512; P22723 39-474)
T2 sequence (looked up) 1: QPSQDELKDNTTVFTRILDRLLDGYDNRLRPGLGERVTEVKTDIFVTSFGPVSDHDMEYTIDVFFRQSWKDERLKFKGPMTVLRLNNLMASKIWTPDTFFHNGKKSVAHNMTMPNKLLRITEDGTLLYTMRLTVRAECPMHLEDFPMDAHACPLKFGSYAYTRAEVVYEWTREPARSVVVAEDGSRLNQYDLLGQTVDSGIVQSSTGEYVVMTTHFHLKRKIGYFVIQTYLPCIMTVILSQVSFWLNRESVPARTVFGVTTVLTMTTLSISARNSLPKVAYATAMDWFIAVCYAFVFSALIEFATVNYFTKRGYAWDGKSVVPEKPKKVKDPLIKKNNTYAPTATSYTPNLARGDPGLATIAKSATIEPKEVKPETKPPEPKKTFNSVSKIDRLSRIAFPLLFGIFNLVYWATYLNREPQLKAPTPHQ
T2 sequence (looked up) 2: T1 sequence (looked up) 2
T2 sequence (looked up) 3: T1 sequence (looked up) 3

α1β1γ2 GABAA receptor = molecular target: T3, α1β1γ2 GABAA receptor (mouse, UniProt P62812 28-455; P50571 26-474; P22723 39-474)
T3 sequence (looked up) 1: T2 sequence (looked up) 1
T3 sequence (looked up) 2: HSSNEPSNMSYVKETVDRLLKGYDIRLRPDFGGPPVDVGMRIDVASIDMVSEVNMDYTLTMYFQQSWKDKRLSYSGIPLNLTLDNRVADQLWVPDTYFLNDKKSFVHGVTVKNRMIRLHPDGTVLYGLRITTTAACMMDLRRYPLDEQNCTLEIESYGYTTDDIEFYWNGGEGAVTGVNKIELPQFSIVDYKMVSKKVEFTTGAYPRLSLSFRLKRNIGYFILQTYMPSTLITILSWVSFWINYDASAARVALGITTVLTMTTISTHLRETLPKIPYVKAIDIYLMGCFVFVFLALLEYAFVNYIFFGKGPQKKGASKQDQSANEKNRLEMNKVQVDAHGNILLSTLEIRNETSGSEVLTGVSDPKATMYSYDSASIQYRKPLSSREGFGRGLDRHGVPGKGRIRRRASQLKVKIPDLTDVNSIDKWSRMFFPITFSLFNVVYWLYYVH
T3 sequence (looked up) 3: T1 sequence (looked up) 3

α2β1γ2 GABAA receptor = molecular target: T4, α2β1γ2 GABAA receptor (mouse, UniProt P26048 29-451; P50571 26-474; P22723 39-474)
T4 sequence (looked up) 1: T1 sequence (looked up) 1
T4 sequence (looked up) 2: T3 sequence (looked up) 2
T4 sequence (looked up) 3: T1 sequence (looked up) 3

B1: α-bungarotoxin coupled with Alexa Fluor 555 (ligand)
chain: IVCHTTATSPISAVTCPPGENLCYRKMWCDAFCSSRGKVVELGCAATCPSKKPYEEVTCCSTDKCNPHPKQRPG
modifications: Alexa Fluor 555 coupled (site not stated)
α2β2γ2 GABAA receptor
  mean cell surface fluorescence intensity: 1290 a.u.
α1β2γ2 GABAA receptor
  mean cell surface fluorescence intensity: 324 a.u.
α1β1γ2 GABAA receptor
  mean cell surface fluorescence intensity: 592 a.u.
α2β1γ2 GABAA receptor
  mean cell surface fluorescence intensity: 1060 a.u.
